Data source: PubChem BioAssay AID1259414 (Drosophila RNAi Screening Center, 2018)
Assay: 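Host factors increasing or decreasing Wolbachia levels in cultured fly cells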 (primary screen). System: Drosophila JW18 cells infected with Wolbachia. Knock-down reagent: long dsRNA against Drosophila genes, 0.25 µg dsRNA per well of a 384-well plate. Timing: 5 days. Challenge: cells persistently infected with Wolbachia before knock-down; no added drug. Read-out: 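Imaged fluorescence in situ signal for Wolbachia 23S rRNA per DAPI-counted host cell, given as a robust z-score within each plate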. Direction: Wolbachia per cell robust z: higher = more Wolbachia per host cell than the plate typical. Hit rule: 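Hit when robust z is 1.5 or more, or -1.5 or less, in at least two of three replicates; excludes dsRNAs with several or no targets, genes not expressed in JW18 and well A1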.
The screen tested about 24,000 reagents; below is an unselected part of those that have a named target and a result. Over the whole deposit, about 1,210 (5%) are marked active. 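Inactive calls also include excluded dsRNAs with several or no targets, genes unexpressed in JW18, and well A1, regardless of score.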 A number with no mark means an inactive call. A plus sign joins genes that one reagent is predicted to hit. Reagent sequences are not shown.

gene	DRSC id	Wolbachia per cell robust z, rep 1	Wolbachia per cell robust z, rep 2	Wolbachia per cell robust z, rep 3
HGTX	DRSC09319	0.33	0.471	-0.314
HGTX	DRSC11181	0.294	-1.52	-0.459
CG13786	DRSC02289	-0.075	2.33	-0.303
CG13786	DRSC27762	0.676	0.526	-0.837
ras (raspberry)	DRSC18825	0.356	0.559	0.299
ras (raspberry)	DRSC27137	-0.2	-0.902	0.142
CG6729	DRSC02984	-1.93	1.2	0.255
CG6729	DRSC22793	0.477	-2.61	-0.767
CG6729	DRSC29961	0.81	0.913	-3.29
Faa (Fumarylacetoacetase)	DRSC08451	-0.703	-0.844	-0.231
CG1360	DRSC06406	1.24	-0.0111	0.413
CG1360	DRSC29406	-0.727	-0.256	-0.0737
mRpL21 (mitochondrial ribosomal protein L21)	DRSC11100	0.439	-0.679	-7.63
CG1231	DRSC08267	0.256	-1	-2.13
CG1231	DRSC27231	-0.252	-1.05	-1.66
Obp18a (Odorant-binding protein 18a)	DRSC19736	0.935	0.392	0.0491
ddbt (deadbeat)	DRSC38857	0.0741	1.41	1.36
GXIVsPLA2	DRSC10243	0.691	1.27	1.14
GXIVsPLA2	DRSC29361	0.262	-1.81	-0.565
Act88F (Actin 88F)	DRSC14105	2.01	3.15	1.51
Act88F (Actin 88F)	DRSC25009	-1.66	0.0718	-0.931
Alp1 (Alkaline phosphatase 1)	DRSC11781	0.0439	-0.9	0.779
CG13135	DRSC02232	-0.328	-0.643	0.258
CG13135	DRSC27657	-0.664	-2.38	-2.12
PGRP-SC1b + PGRP-SC1a	DRSC25294	1.09	0.103	-0.193
Nepl3 (Neprilysin-like 3)	DRSC02681	0.593	0.482	-0.572
Or35a (Odorant receptor 35a)	DRSC03389	0.749	0.792	0.426
Idh3a (Isocitrate dehydrogenase 3a)	DRSC19446	-0.113	0.285	0.429
Idh3a (Isocitrate dehydrogenase 3a)	DRSC28303	-0.719 (active)	-13.6	-1.92
CG12239	DRSC17832	0.553	-0.492	-0.781
CG12239	DRSC27969	0.896	0.597	0.63
Mtpalpha (Mitochondrial trifunctional protein alpha subunit)	DRSC01994	0.117	-0.207	0.561
mthl7 (methuselah-like 7)	DRSC10852	0.76	0.318	0.637
CG11983	DRSC14458	0.33	0.542	0.414
Cam (Calmodulin)	DRSC07353	-0.175	0.384	-0.519
Cam (Calmodulin)	DRSC07354	-0.0141	-0.325	-0.0552
Zw10 (Zeste-white 10)	DRSC18793	-0.416	0.227	-0.245
Zw10 (Zeste-white 10)	DRSC25620	-0.875	0.0541	-1.06
gem (gemini)	DRSC06093	-0.466	-1.14	-0.557
gem (gemini)	DRSC06847	0.562	-1.2	-1.36
Spn55B (Serpin 55B)	DRSC07694	-2.51 (active)	-4.32	-2.6
Spn55B (Serpin 55B)	DRSC21862	-0.191	-0.652	-0.151
Spn55B (Serpin 55B)	DRSC27961	0.781	1.02	0.888
hubl (hug-bell)	DRSC06825	1.37	-0.0482	0.859
fd3F (forkhead domain 3F)	DRSC23032	0.383	0.923	0.433
CG14088	DRSC10092	-1.11	0.103	-0.485
CG31178	DRSC14590	-1.96	-0.243	-1.57
thetaTry (thetaTrypsin)	DRSC07705	-0.63	0.126	-0.852
thetaTry (thetaTrypsin)	DRSC29830	-0.23	0.068	0.325
fray (frayed)	DRSC16950	0.384	0.636	0.266
SclB + SclA	DRSC22149	-1.51	-1.61	-0.65
CG30161	DRSC22141	-1.28	-0.0541	-0.153
Pcp (Pupal cuticle protein)	DRSC03395	-1.03	-0.448	0.74
CG10477	DRSC09732	-0.953	-0.0387	0.681
CG10477	DRSC23989	-0.936	-0.988	0.548
IntS12 (Integrator 12)	DRSC15818	-0.677	-0.692	-0.0104

Hits (from the list above):
gene	DRSC id	Wolbachia per cell robust z, rep 1	Wolbachia per cell robust z, rep 2	Wolbachia per cell robust z, rep 3
Idh3a (Isocitrate dehydrogenase 3a)	DRSC28303	-0.719 (active)	-13.6	-1.92
Spn55B (Serpin 55B)	DRSC07694	-2.51 (active)	-4.32	-2.6

Additional reagents follow:
gene	DRSC id	Wolbachia per cell robust z, rep 1	Wolbachia per cell robust z, rep 2	Wolbachia per cell robust z, rep 3
pgc (polar granule component)	DRSC04099	-2.01	-2.09	-4.25
CG33308	DRSC01419	-1.02	-1.34	-3.25
CalpB (Calpain-B)	DRSC11109	0.442	-0.0351	0.00371
CalpB (Calpain-B)	DRSC25885	-1.86	-1.31	-1.46
rngo (rings lost)	DRSC19903	-1.7 (active)	-1.58	0.83
rngo (rings lost)	DRSC26936	-0.859	0.00974	-0.363
papi	DRSC00693	-0.385	0.606	-0.493
Hao + Pex6	DRSC06704	0.84	-0.727	0.992
caly (calypso)	DRSC07182	0.824	0.0732	0.951
aPKC (atypical protein kinase C)	DRSC05515	-0.936	0.474	0.461
aPKC (atypical protein kinase C)	DRSC07639	-2.12 (active)	-3.08	1.03
aPKC (atypical protein kinase C)	DRSC28133	0.0277	-0.113	0.263
aPKC (atypical protein kinase C)	DRSC29936	-0.942	-0.388	0.165
Osi7 (Osiris 7)	DRSC12176	0.149	-3.33	-0.592
Osi7 (Osiris 7)	DRSC27146	-5.11	0.257	-0.029
CG10459	DRSC05991	-1.13	-0.36	-0.495
CG10459	DRSC22092	0.3	-0.328	-0.72
RpL19 (Ribosomal protein L19)	DRSC04649	2.73	1.42	0.901
RpL19 (Ribosomal protein L19)	DRSC28391	0.83 (active)	2.03	2.23
Asciz (ASCIZ zinc finger protein)	DRSC08421	-2.3	0.939	0.538
Dh31-R (Diuretic hormone 31 Receptor)	DRSC06669	-0.114	-0.199	-1.94
Dh31-R (Diuretic hormone 31 Receptor)	DRSC23417	0.865	-0.624	1.56
CG33099	DRSC15774	0.729	2.96	0.615
CG33099	DRSC29273	-0.488	-0.349	0.698
elm (ethanol sensitive with low memory)	DRSC12309	-2.05	0.258	0.108
CG7017	DRSC10762	-0.584	-0.836	-1.1
CG8292	DRSC03082	0.639	0.565	2.04
RpL32 (Ribosomal protein L32)	DRSC16835	1.62 (active)	1.11	1.47
RpL32 (Ribosomal protein L32)	DRSC27164	2.06	0.0416	0.0537
alphaTub67C (alpha-Tubulin at 67C)	DRSC11321	1.84	1.09	1.8
alphaTub67C (alpha-Tubulin at 67C)	DRSC25162	1.07	-0.301	1.47
